Assays:
[1] = system: S282T mut. 1b replicon; experiment: microbe, parasite or virus in culture; conditions: Hepatitis C virus
[2] = target: HCV 1b NS5B polymerase, S282T (Hepatitis C virus genotype 1b, UniProt Q9WMX2, S2701T); experiment: biochemical

Protein sequences, listed by entry. Tags and fused reporters are not part of them. Residues count along the entry.
UniProt Q9WMX2, 2420-3010 S2701T: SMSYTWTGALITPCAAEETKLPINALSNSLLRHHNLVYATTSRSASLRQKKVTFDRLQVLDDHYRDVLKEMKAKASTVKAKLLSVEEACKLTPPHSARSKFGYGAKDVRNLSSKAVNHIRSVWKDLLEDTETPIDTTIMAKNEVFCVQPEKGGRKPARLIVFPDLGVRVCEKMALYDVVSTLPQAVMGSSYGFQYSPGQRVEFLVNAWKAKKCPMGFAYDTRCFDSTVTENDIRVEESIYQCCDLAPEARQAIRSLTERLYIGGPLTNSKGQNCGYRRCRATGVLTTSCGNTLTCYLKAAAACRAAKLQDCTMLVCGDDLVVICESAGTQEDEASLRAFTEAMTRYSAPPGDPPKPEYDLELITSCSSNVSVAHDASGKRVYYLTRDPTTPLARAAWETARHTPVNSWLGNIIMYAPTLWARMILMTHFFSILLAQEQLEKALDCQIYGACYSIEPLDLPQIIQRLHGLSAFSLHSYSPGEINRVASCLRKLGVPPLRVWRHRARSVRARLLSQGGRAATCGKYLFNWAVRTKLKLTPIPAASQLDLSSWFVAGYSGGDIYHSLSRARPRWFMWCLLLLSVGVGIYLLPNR

C[C@@]1(O)[C@H](O)[C@@H](CO)O[C@H]1n1cnc2c(N)ncnc21 [2′-C-methyladenosine]
EC90 [1]: > 100 µM

C[C@@]1(F)[C@H](O)[C@@H](COP(=O)(O)OP(=O)(O)OP(=O)(O)O)O[C@H]1n1ccc(N)nc1=O
IC50 ([2]; batch 1): 2 µM
IC50 ([2]; batch 2): 8.3 ± 2.4 µM

C[C@@]1(O)[C@H](O)[C@@H](CO)O[C@H]1n1ccc(N)nc1=O [2′-C-methylcytidine]
EC90 [1]: 37.4 ± 12.1 µM

C[C@@]1(F)[C@H](O)[C@@H](CO)O[C@H]1n1ccc(N)nc1=O
EC90 [1]: 30.7 ± 11.7 µM
